Values quoted from earlier work, collected in patent publication US20260041660A1 (priority 2020, published 2026).

Test system: SARS-COV-2
Conditions: in vivo; cited from earlier work

**Q.** For “IFNα2b: type I interferon, given as sprays”, which “infection rates of SARS-COV-2” value is on record?
**A.** can reduce infection rates
